Measured values taken from PubChem BioAssay AID435019 (Southern Research Specialized Biocontainment Screening …, 2010).

Test system: mammalian cell viability, cytotoxicity counter-screen
Assay: mammalian cell cytotoxicity, dose response, cytotoxicity control for M. tuberculosis inhibitor project (AID 435019)

CN(C)C(=O)c1cc([N+](=O)[O-])cc2c1-c1c(cc([N+](=O)[O-])cc1[N+](=O)[O-])C2=O
CC50: 11.5 µM
